## Results of single-concentration screens

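Growth of Mycobacterium tuberculosis over 3 days (7H9 medium with glucose and tyloxapol); the read-out is not stated. Tested at 50 µM. Higher reads as more growth inhibition (inferred: compounds with an IC50 in retests scored well above the rest). About 69,000 compounds were tested under these conditions; 1.1% (about 760) showed 50% or more at least once.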

Values are the deposited “Percent Effect”, in %. The record does not define 0% and 100%; most values in the screen are far below 50% and negative numbers occur (in some assays of this library far below -100). Many other results are left out here, so strong results are more common than in the screen. Two or more numbers in one place are separate tests of the same structure; such repeats can differ widely.

| # | SMILES | Percent Effect |
|---|---|---|
| 1 | `CCc1ccc(CN(C/C=C/c2ccccc2)CCOC)nc1` | 55.27 |
| 2 | `CCc1ccccc1OC1CN(C(=O)c2ccsc2)C1` | 53.6 |
| 3 | `Cc1nc[nH]c1CN1CCCN(c2nc3ccccc3s2)CC1` | 14.55 |
| 4 | `Cc1cnc2c(S(=O)(=O)NCC3CCN(C4CC4)C3)cccc2c1` (centres unmarked) | 56.52 |
| 5 | `Cc1nc(C(Cc2ccsc2)NC(=O)CCN2CCOCC2)sc1C` (centres unmarked) | -7.739 |
| 6 | `COc1cc(CN2CCCC(Nc3cccc(F)c3)C2)cc(OC)c1O` (centres unmarked) | 17.22 and 7.976 |
| 7 | `Cc1ccc(N2N=C(C(=O)NCC3CC3)S(=O)(=O)c3cccnc32)cc1` | 10.91 |
| 8 | `O=C(Cn1ccc2ccccc21)N1CCC(Oc2ncccc2Br)CC1` | 17.39 and 30.23 |
| 9 | `COc1cccc(CN2CCc3nc4ccsc4c(=O)n3CC2)c1.Cl` | -33.06 |
| 10 | `COCCNc1nnc(-c2ccc(C)nc2)s1` | -23.9 |
| 11 | `COCCN1CCC(CNCc2c[nH]nc2C(C)(C)C)CC1` | 65.19 |
| 12 | `c1ccc(Cc2cccc(C3CCCN3C3CCOCC3)n2)cc1` (centres unmarked) | 61.76 |
| 13 | `O=C(NCc1cc[nH]n1)NCC(O)c1ccc(F)cc1` (centres unmarked) | 9.189 |
| 14 | `CC(O)CNc1nc(-c2cccnc2)nc2c1CCC2` (centres unmarked) | -13.39 |
| 15 | `N[C@@H]1CCC[C@@H](Oc2ccc(F)cc2Oc2cccc(F)c2)[C@@H]1O` | 3.825 |
| 16 | `O=C(O)C(F)(F)F.O=C(c1c[nH]cn1)N1CCC(F)(F)C2(CCN(c3ncccn3)C2)C1` (centres unmarked) | -4.421 and -4.399 |
| 17 | `CCOc1ccc(N2CCCN=C2NC(=O)c2ccc(OC)cc2)cc1` | -4.42 |
| 18 | `Cc1cc(NC(=O)C(C)Oc2ccc3c(c2)OCO3)no1` (centres unmarked) | 16.64 |
| 19 | `COc1ccc(NC(C)C(=O)N2CCCC2)cn1` (centres unmarked) | -63.51 and -22.18 |
| 20 | `O=C(COCc1nc(-c2ccncc2)no1)N1CCCC1` | -2.336 |
| 21 | `CC1CCN(C(=O)C(C)Oc2ccc3c(c2)OCO3)CC1` (centres unmarked) | 60.72 |
| 22 | `O=C1N(Cc2ccc(F)c(F)c2)CCCC1(O)CNCc1cccnc1` (centres unmarked) | -3.921 |
| 23 | `CCn1cc(-c2cc(C(=O)N3CCOCC3)c3cc(Cl)ccc3n2)cn1` | 52.31 |
| 24 | `COCCCSc1ccc(NCc2ccc(C)cn2)cc1` | 35.96 and 44.38 |
| 25 | `NCC1CN(c2nc(-c3cccnc3)nc3c2CCNCC3)CCO1` (centres unmarked) | 42.1 |
| 26 | `FC(F)(F)c1ccc2nc([C@H]3CCN(C4CCOCC4)C3)[nH]c2c1` | 10.14 and 7.513 |
| 27 | `CC[C@H](C)[C@@H](CO)NC(C)Cc1ccc(Cl)cc1` (some centres unmarked) | 0.2173 |
| 28 | `CC(C)Oc1ccc(C(=O)NCc2ccnc(N3CCCC3)c2)cn1` | 56.63 and 45.38 |
| 29 | `CC(C)(O)CCc1cccc(C(=O)NCC2COCCO2)c1` (centres unmarked) | 14.64 |
| 30 | `Cc1cnn(CCNCc2ccccc2F)c1` | 27.66 |
| 31 | `Cc1ccc(Cl)c(NC(=O)NC2(C)CCOC2)c1` (centres unmarked) | 88.52 |
| 32 | `Cc1nc2c(cc1C(=O)O)CCN(Cc1ccsc1)CC2.O=C(O)C(F)(F)F.O=C(O)C(F)(F)F` | -18.9 |
| 33 | `COC1CCN(Cc2csc(C(C)C)n2)CC1` | -29.64 |
| 34 | `Cc1nc2c(Nc3ccc(C#N)cc3)nc(N)nc2n1C` | -5.087 |
| 35 | `Cc1cc(CNc2cncc(C(=O)N(C)C)n2)c2[nH]c(C)c(C)c2c1` | -26.68 |
| 36 | `Cc1cc(NCCSc2nccn2C)n2nc(C)c(C)c2n1` | 39.1 |
| 37 | `Cc1ccc(N2CCN(c3ccccc3C)CC2C)nn1` (centres unmarked) | 39.91 and 11.41 |
| 38 | `NC(=O)C(NC(=O)c1cc(Cl)c[nH]1)c1ccccc1` (centres unmarked) | 5.707 |
| 39 | `CN(CCc1cccs1)CCc1nccs1` | 2.576 |
| 40 | `O=C1CC2(CCN(Cc3ncc[nH]3)CC2)CN1Cc1ccc(Cl)cc1` | 26.93 |
| 41 | `NCC(c1ccccc1)N1CCc2sccc2C1` (centres unmarked) | 16.57 and 17.5 |
| 42 | `Cn1c(CCNC(=O)Nc2cn[nH]c2)nc2ccc(F)cc21` | -5.378 and 1.467 |
| 43 | `Cc1cc(=O)[nH]c(SC(C)C(=O)N2CCC(NS(C)(=O)=O)CC2)n1` (centres unmarked) | 70.28 |
| 44 | `CCc1[nH]c2c(CNc3nccc(N)n3)cc(C)cc2c1C` | 42.24 |
| 45 | `c1cnnc(N2CCCC2CNc2nc3ccccc3o2)c1` (centres unmarked) | 5.21 |
| 46 | `Cl.Fc1ccc(-c2cnc(C3CCCN3)cn2)cc1` (centres unmarked) | 18.3 |
| 47 | `CNc1nc(C(=O)NCC2CCOc3ccccc3C2)cs1` (centres unmarked) | -0.6202 and 7.997 |
| 48 | `CCCc1nc(C(=O)N2CCN(C(=O)c3ccc(OC)cc3)CC2)cs1` | -4.877 and -17.22 |
| 49 | `[H][C@]12CC[C@]([H])(CN(Cc3ccccc3)C1)N(Cc1snnc1C)C2` | 74.36 |
| 50 | `c1ccc(CCN2CCN(c3ccc4nncn4n3)CC2)nc1` | -2.416 |
| 51 | `Cc1csc(N2CCCN(C(=O)CCN3CCCC3=O)CC2)n1` | -5.403 |
| 52 | `[H][C@@]12CN(C(=O)C3CCOC3)C[C@]1([H])C(=O)N(c1ccccc1)C2` (some centres unmarked) | -2.618 and -15.33 |
| 53 | `Cc1nc2c(c(NCCc3nc(C)c(Cl)s3)n1)CCNCC2` | 0.5022 and 2.378 |
| 54 | `COc1cccc(-n2nnc(C(=O)N3CCCC3)c2C)c1` | -10.39 |
| 55 | `Cc1nnc(CN(C)CC2CCCCC2)o1` | 44.01 |
| 56 | `Cc1nn(C)cc1CN(Cc1ccccn1)Cc1ccccc1Cl` | 31.81 |
| 57 | `COCC(=O)NC(C)Cc1cccc(Br)c1` (centres unmarked) | 39.61 |
| 58 | `Cc1ccc(-c2noc(C(C)NS(C)(=O)=O)n2)cc1` (centres unmarked) | -32.8 |
| 59 | `CC(C)(C)c1n[nH]cc1CNC1CCC(O)CC1` (centres unmarked) | 7.338 |
| 60 | `CC(C)C1CN(C(=O)c2ccccc2)CCS1` (centres unmarked) | 27.48 and 35.22 |
| 61 | `N#Cc1ccc(NC2CCN(c3ncccn3)CC2)cc1Cl` | 3.943 |
| 62 | `O=C(O)C(F)(F)F.[H][C@@]12CN(Cc3ccc(F)cc3)C[C@]1([H])C(=O)N(c1ccsc1)C2` | 46.71 |
| 63 | `O=C(CCc1ccco1)NS(=O)(=O)N1CCOc2ccccc21` | -0.6062 and -1.454 |
| 64 | `CCOc1ccnc(N2CCCN(c3nc(CC)ns3)CC2)n1` | -1.167 |
| 65 | `CCCc1cc(C(=O)N2C[C@H](O)[C@@H](N3CCCC3)C2)ccn1` | 20.06 |
| 66 | `Clc1ccccc1C1(c2ccnc(C3CC3)n2)CCNCC1` | -9.656 |
| 67 | `COCC(=O)NCCc1ccc(Cl)s1` | 48.45 |
| 68 | `Cc1nc(CN2C(=O)CCC23CCN(Cc2cccn2C)CC3)cs1.O=C(O)C(F)(F)F.O=C(O)C(F)(F)F` | 1.482 |
| 69 | `CC(C)c1cc(C(=O)N2CCN(Cc3ccsc3)CC2)n[nH]1` | 79.47 |
| 70 | `COC(=O)c1ccc(C(=O)NCc2ccco2)nc1` | -5.704 and 9.565 |
| 71 | `O=C(CCc1ccsc1)NC1CCN(c2cccc(F)c2)CC1` | 26.2 |
| 72 | `CCc1ccc2nc(NCCCN(CCO)CCO)cc(C)c2c1` | 55.29 |

For reference, 8 entries once more:

With COc1cccc(CN2CCc3nc4ccsc4c(=O)n3CC2)c1.Cl the screen gave -33.06%.
With Cc1csc(N2CCCN(C(=O)CCN3CCCC3=O)CC2)n1 the screen gave -5.403%.
With O=C(O)C(F)(F)F.O=C(c1c[nH]cn1)N1CCC(F)(F)C2(CCN(c3ncccn3)C2)C1 (centres unmarked) the screen gave -4.421% and -4.399%.
With Cc1nc2c(cc1C(=O)O)CCN(Cc1ccsc1)CC2.O=C(O)C(F)(F)F.O=C(O)C(F)(F)F the screen gave -18.9%.
With CCCc1nc(C(=O)N2CCN(C(=O)c3ccc(OC)cc3)CC2)cs1 the screen gave -4.877% and -17.22%.
With Cc1cc(NC(=O)C(C)Oc2ccc3c(c2)OCO3)no1 (centres unmarked) the screen gave 16.64%.
With Cc1ccc(Cl)c(NC(=O)NC2(C)CCOC2)c1 (centres unmarked) the screen gave 88.52%.
With COCCN1CCC(CNCc2c[nH]nc2C(C)(C)C)CC1 the screen gave 65.19%.

Data taken from ChEMBL document CHEMBL3988442, “University of Dundee, Small-Polar-MMV Screening Library” (2021).